According to article PMC8351594, “Design of Novel Amphipathic α-Helical Antimicrobial Peptides with No Toxicity as Therapeutics against the Antibiotic-Resistant Gram-Negative Bacterial Pathogen, Acinetobacter Baumannii” (Journal of medicinal chemistry and drug design, 2019):

test system: Acinetobacter baumannii (seven strains) versus human red blood cells; details: HC50 (μM) human red blood cells 18 h 37°C / MICGM (μM) seven A. baumannii strains

| Compound | T.I. (therapeutic index, HC50/MICGM) |
| --- | --- |
| CC(=O)N[C@H](CCCCN)C(=O)N[C@H](CC(C)C)C(=O)N[C@@H](CCN)C(=O)N[C@H](CO)C(=O)N[C@H](CC(C)C)C(=O)N[C@H](CC(C)C)C(=O)N[C@@H](CCN)C(=O)N[C@@H](C(=O)N[C@H](CC(C)C)C(=O)N[C@H](CO)C(=O)N[C@H](C)C(=O)N[C@H](C)C(=O)N[C@H](CCCCN)C(=O)N[C@@H](CCN)C(=O)N[C@@H](CCN)C(=O)N[C@H](CCCCN)C(=O)N[C@H](CC(C)C)C(=O)N[C@H](C)C(=O)N[C@@H](C(=O)N[C@H](CC(C)C)C(=O)N[C@H](CC(C)C)C(=O)N[C@@H](CCN)C(=O)N[C@H](C)C(=O)N[C@H](CC(C)C)C(=O)N[C@H](CO)C(=O)N[C@H](CO)C(N)=O)[C@H](C)O)[C@H](C)O [D104(Lys^1Ser^26-5 Dab-2)] (Ac-[dK][dL][Dab][dS][dL][dL][Dab][dT][dL][dS][dA][dA][dK][Dab][Dab][dK][dL][dA][dT][dL][dL][Dab][dA][dL][dS][dS]-NH2) | >1863 |
| CC(=O)N[C@H](CCCCN)C(=O)N[C@H](CC(C)C)C(=O)N[C@H](CCCCN)C(=O)N[C@H](CO)C(=O)N[C@H](CC(C)C)C(=O)N[C@H](CC(C)C)C(=O)N[C@H](CCCCN)C(=O)N[C@@H](C(=O)N[C@H](CC(C)C)C(=O)N[C@H](CO)C(=O)N[C@H](C)C(=O)N[C@H](C)C(=O)N[C@H](CCCCN)C(=O)N[C@H](CCCCN)C(=O)N[C@H](CCCCN)C(=O)N[C@H](CCCCN)C(=O)N[C@H](CC(C)C)C(=O)N[C@H](C)C(=O)N[C@@H](C(=O)N[C@H](CC(C)C)C(=O)N[C@H](CC(C)C)C(=O)N[C@H](CCCCN)C(=O)N[C@H](C)C(=O)N[C@H](CC(C)C)C(=O)N[C@H](CO)C(=O)N[C@H](CO)C(N)=O)[C@H](C)O)[C@H](C)O [D103(Lys^1Ser^26-5 Lys-2)] (Ac-[dK][dL][dK][dS][dL][dL][dK][dT][dL][dS][dA][dA][dK][dK][dK][dK][dL][dA][dT][dL][dL][dK][dA][dL][dS][dS]-NH2) | 192.7 |
| CC(=O)N[C@H](CCCCN)C(=O)N[C@H](CC(C)C)C(=O)N[C@@H](CN)C(=O)N[C@H](CO)C(=O)N[C@H](CC(C)C)C(=O)N[C@H](CC(C)C)C(=O)N[C@@H](CN)C(=O)N[C@@H](C(=O)N[C@H](CC(C)C)C(=O)N[C@H](CO)C(=O)N[C@H](C)C(=O)N[C@H](C)C(=O)N[C@H](CCCCN)C(=O)N[C@@H](CN)C(=O)N[C@@H](CN)C(=O)N[C@H](CCCCN)C(=O)N[C@H](CC(C)C)C(=O)N[C@H](C)C(=O)N[C@@H](C(=O)N[C@H](CC(C)C)C(=O)N[C@H](CC(C)C)C(=O)N[C@@H](CN)C(=O)N[C@H](C)C(=O)N[C@H](CC(C)C)C(=O)N[C@H](CO)C(=O)N[C@@H](CN)C(N)=O)[C@H](C)O)[C@H](C)O [D106(Lys^1-6 Dap-2)] (Ac-[dK][dL][Dap][dS][dL][dL][Dap][dT][dL][dS][dA][dA][dK][Dap][Dap][dK][dL][dA][dT][dL][dL][Dap][dA][dL][dS][Dap]-NH2) | 425.3 |
| CC(=O)N[C@H](CCCCN)C(=O)N[C@H](CC(C)C)C(=O)N[C@H](CCCCN)C(=O)N[C@H](CO)C(=O)N[C@H](CC(C)C)C(=O)N[C@H](CC(C)C)C(=O)N[C@H](CCCCN)C(=O)N[C@@H](C(=O)N[C@H](CC(C)C)C(=O)N[C@H](CO)C(=O)N[C@H](CCCCN)C(=O)N[C@H](C)C(=O)N[C@H](CCCCN)C(=O)N[C@H](C)C(=O)N[C@H](C)C(=O)N[C@H](CCCCN)C(=O)N[C@H](CC(C)C)C(=O)N[C@H](CCCCN)C(=O)N[C@@H](C(=O)N[C@H](CC(C)C)C(=O)N[C@H](CC(C)C)C(=O)N[C@H](CCCCN)C(=O)N[C@H](C)C(=O)N[C@H](CC(C)C)C(=O)N[C@H](CO)C(=O)N[C@H](CO)C(N)=O)[C@H](C)O)[C@H](C)O [D101(Lys^1Ser^26-5 Lys-1)] (Ac-[dK][dL][dK][dS][dL][dL][dK][dT][dL][dS][dK][dA][dK][dA][dA][dK][dL][dK][dT][dL][dL][dK][dA][dL][dS][dS]-NH2) | 129.9 |
| CC(=O)N[C@H](CCCCN)C(=O)N[C@H](CC(C)C)C(=O)N[C@@H](CCN)C(=O)N[C@H](CO)C(=O)N[C@H](CC(C)C)C(=O)N[C@H](CC(C)C)C(=O)N[C@@H](CCN)C(=O)N[C@@H](C(=O)N[C@H](CC(C)C)C(=O)N[C@H](CO)C(=O)N[C@H](C)C(=O)N[C@H](C)C(=O)N[C@H](CCCCN)C(=O)N[C@@H](CCN)C(=O)N[C@@H](CCN)C(=O)N[C@H](CCCCN)C(=O)N[C@H](CC(C)C)C(=O)N[C@H](C)C(=O)N[C@@H](C(=O)N[C@H](CC(C)C)C(=O)N[C@H](CC(C)C)C(=O)N[C@@H](CCN)C(=O)N[C@H](C)C(=O)N[C@H](CC(C)C)C(=O)N[C@H](CO)C(=O)N[C@@H](CCN)C(N)=O)[C@H](C)O)[C@H](C)O [D89(Lys^1-6 Dab-2)] (Ac-[dK][dL][Dab][dS][dL][dL][Dab][dT][dL][dS][dA][dA][dK][Dab][Dab][dK][dL][dA][dT][dL][dL][Dab][dA][dL][dS][Dab]-NH2) | >1589 |
| CC(=O)N[C@H](CCCCN)C(=O)N[C@H](CC(C)C)C(=O)N[C@@H](CN)C(=O)N[C@H](CO)C(=O)N[C@H](CC(C)C)C(=O)N[C@H](CC(C)C)C(=O)N[C@@H](CN)C(=O)N[C@@H](C(=O)N[C@H](CC(C)C)C(=O)N[C@H](CO)C(=O)N[C@@H](CN)C(=O)N[C@H](C)C(=O)N[C@H](CCCCN)C(=O)N[C@H](C)C(=O)N[C@H](C)C(=O)N[C@H](CCCCN)C(=O)N[C@H](CC(C)C)C(=O)N[C@@H](CN)C(=O)N[C@@H](C(=O)N[C@H](CC(C)C)C(=O)N[C@H](CC(C)C)C(=O)N[C@@H](CN)C(=O)N[C@H](C)C(=O)N[C@H](CC(C)C)C(=O)N[C@H](CO)C(=O)N[C@@H](CN)C(N)=O)[C@H](C)O)[C@H](C)O [D105(Lys^1-6 Dap-1)] (Ac-[dK][dL][Dap][dS][dL][dL][Dap][dT][dL][dS][Dap][dA][dK][dA][dA][dK][dL][Dap][dT][dL][dL][Dap][dA][dL][dS][Dap]-NH2) | >957 |
| CC(=O)N[C@H](CCCCN)C(=O)N[C@H](CC(C)C)C(=O)N[C@H](CCCCN)C(=O)N[C@H](CO)C(=O)N[C@H](CC(C)C)C(=O)N[C@H](CC(C)C)C(=O)N[C@H](CCCCN)C(=O)N[C@@H](C(=O)N[C@H](CC(C)C)C(=O)N[C@H](CO)C(=O)N[C@H](CCCCN)C(=O)N[C@H](C)C(=O)N[C@H](CCCCN)C(=O)N[C@H](C)C(=O)N[C@H](C)C(=O)N[C@H](CCCCN)C(=O)N[C@H](CC(C)C)C(=O)N[C@H](CCCCN)C(=O)N[C@@H](C(=O)N[C@H](CC(C)C)C(=O)N[C@H](CC(C)C)C(=O)N[C@H](CCCCN)C(=O)N[C@H](C)C(=O)N[C@H](CC(C)C)C(=O)N[C@H](CO)C(=O)N[C@H](CCCCN)C(N)=O)[C@H](C)O)[C@H](C)O [D84(Lys^1-6 Lys-1)] (Ac-[dK][dL][dK][dS][dL][dL][dK][dT][dL][dS][dK][dA][dK][dA][dA][dK][dL][dK][dT][dL][dL][dK][dA][dL][dS][dK]-NH2) | 108.6 |
| CC(=O)N[C@H](CCCCN)C(=O)N[C@H](CC(C)C)C(=O)N[C@H](CCCCN)C(=O)N[C@H](CO)C(=O)N[C@H](CC(C)C)C(=O)N[C@H](CC(C)C)C(=O)N[C@H](CCCCN)C(=O)N[C@@H](C(=O)N[C@H](CC(C)C)C(=O)N[C@H](CO)C(=O)N[C@H](C)C(=O)N[C@H](C)C(=O)N[C@H](CCCCN)C(=O)N[C@H](CCCCN)C(=O)N[C@H](CCCCN)C(=O)N[C@H](CCCCN)C(=O)N[C@H](CC(C)C)C(=O)N[C@H](C)C(=O)N[C@@H](C(=O)N[C@H](CC(C)C)C(=O)N[C@H](CC(C)C)C(=O)N[C@H](CCCCN)C(=O)N[C@H](C)C(=O)N[C@H](CC(C)C)C(=O)N[C@H](CO)C(=O)N[C@H](CCCCN)C(N)=O)[C@H](C)O)[C@H](C)O [D88(Lys^1-6 Lys-2)] (Ac-[dK][dL][dK][dS][dL][dL][dK][dT][dL][dS][dA][dA][dK][dK][dK][dK][dL][dA][dT][dL][dL][dK][dA][dL][dS][dK]-NH2) | 201.5 |
| CC(=O)N[C@H](CCCCN)C(=O)N[C@H](CC(C)C)C(=O)N[C@@H](CCN)C(=O)N[C@H](CO)C(=O)N[C@H](CC(C)C)C(=O)N[C@H](CC(C)C)C(=O)N[C@@H](CCN)C(=O)N[C@@H](C(=O)N[C@H](CC(C)C)C(=O)N[C@H](CO)C(=O)N[C@@H](CCN)C(=O)N[C@H](C)C(=O)N[C@H](CCCCN)C(=O)N[C@H](C)C(=O)N[C@H](C)C(=O)N[C@H](CCCCN)C(=O)N[C@H](CC(C)C)C(=O)N[C@@H](CCN)C(=O)N[C@@H](C(=O)N[C@H](CC(C)C)C(=O)N[C@H](CC(C)C)C(=O)N[C@@H](CCN)C(=O)N[C@H](C)C(=O)N[C@H](CC(C)C)C(=O)N[C@H](CO)C(=O)N[C@@H](CCN)C(N)=O)[C@H](C)O)[C@H](C)O [D86(Lys^1-6 Dab-1)] (Ac-[dK][dL][Dab][dS][dL][dL][Dab][dT][dL][dS][Dab][dA][dK][dA][dA][dK][dL][Dab][dT][dL][dL][Dab][dA][dL][dS][Dab]-NH2) | >824 |
| CC(=O)N[C@H](CCCCN)C(=O)N[C@H](CC(C)C)C(=O)N[C@@H](CCN)C(=O)N[C@H](CO)C(=O)N[C@H](CC(C)C)C(=O)N[C@H](CC(C)C)C(=O)N[C@@H](CCN)C(=O)N[C@@H](C(=O)N[C@H](CC(C)C)C(=O)N[C@H](CO)C(=O)N[C@@H](CCN)C(=O)N[C@H](C)C(=O)N[C@H](CCCCN)C(=O)N[C@H](C)C(=O)N[C@H](C)C(=O)N[C@H](CCCCN)C(=O)N[C@H](CC(C)C)C(=O)N[C@@H](CCN)C(=O)N[C@@H](C(=O)N[C@H](CC(C)C)C(=O)N[C@H](CC(C)C)C(=O)N[C@@H](CCN)C(=O)N[C@H](C)C(=O)N[C@H](CC(C)C)C(=O)N[C@H](CO)C(=O)N[C@H](CO)C(N)=O)[C@H](C)O)[C@H](C)O [D102(Lys^1Ser^26-5 Dab-1)] (Ac-[dK][dL][Dab][dS][dL][dL][Dab][dT][dL][dS][Dab][dA][dK][dA][dA][dK][dL][Dab][dT][dL][dL][Dab][dA][dL][dS][dS]-NH2) | >1012 |

Square brackets hold non-standard residues; d marks the D form. Peptide text beside a SMILES is read from it. Dab = NCC[C@H](N)C(=O)O; Dap = NC[C@H](N)C(=O)O
